Test results taken from US20040053872A1, “New sequences” (priority 2000, published 2004).

Target: recombinant HIV-1 RT, ref RT (HIV type B, clone BH 10) (Human immunodeficiency virus type 1 group M subtype B, UniProt P03366)
Details: read-out: Inhibition of binding to primer (BIC50), immobilised primer, binding 90 min at 33° C.
Method: (iii) Protocol for RT binding inhibition (BIC) assay: The study was performed in a modified DNA polymerase assay. The inhibitors were serially diluted in five steps, enzyme dilution was added and the enzyme/inhibitor mixtures were incubated for 30 minutes at 33° C. Aliquots of the enzyme/inhibitor mixture were transferred to each well of a microtiter plate containing either immobilised primer, or primer/template. The enzyme was allowed to bind to the immobilised polymer for 90 min at 33° C. The amount of RT used was standardised to an activity corresponding to 40-60 pg (3.3-5.0×10^−16 mol) reference HIV-1 RT per well. The plates were then washed to remove unbound enzyme whereupon the amount of bound enzyme was determined by addition of the appropriate reaction solution for polymerisation (i e a reaction solution devoid of primer for studies of primer binding and a reaction solution devoid of both primer and template for studies of binding to primed template). The polymerase reaction was allowed to proceed for 3 hours at 33° C., whereupon the reaction was terminated by a wash of the plate.
The capacity of the indicated substances to inhibit the binding to primer or to primed DNA template of a panel of recombinant HIV 1 subtype B RTs was studied according to “Protocol for RT binding inhibition (BIC) assay” (protocol (iii) above).

Work on “substance 199: 35-mer RNA molecule having the sequence set out in SEQ ID NO:5; similar to SEQ ID NO:4 with some naturally occurring nucleotide derivatives (GCUCAGNCGGNAGAGCANCAGACUUUUAANCUGAN; RNA, backbone, methylation of C and the base at N not given here; naturally occurring modified nucleosides at n positions)” yielded an IC50 of 2 nM.
